Pooled drug test results. Numbers come from NIAID ChemDB, via PubChem.

All rows: toxicity to cultured cells; cell line: CEM; endpoint: CC50

CCn: concentration that lowers growth or viability of the cells by n%. Neighbouring rows are from separate reports.

compound | value
O=c1[nH]c(=O)n([C@@H]2O[C@@H](CO)[C@H](O)C2(F)F)cc1I | >100 µM
CC(=O)Oc1ccccc1COP(=O)(OCc1ccccc1OC(C)=O)OC[C@@H]1C=C[C@H](n2cc(C)c(=O)[nH]c2=O)O1 | 21 µM
COC(=O)c1ccc(CSCC2(CSCc3ccc(C(=O)OC)cc3)NC(=O)NC2=O)cc1 | >25 µM
Cc1cn([C@H]2C[C@H](F)[C@@H](CO)O2)c(=O)[nH]c1=O | 18 µg/mL
Cc1cn([C@@H]2O[C@@H]3CN[C@@]4(O)CS(=O)(=O)O[C@@]34[C@H]2O[Si](C)(C)C(C)(C)C)c(=O)[nH]c1=O | >250 µM
O=C1NC(=O)C(CS)(CSCc2ccccc2)N1 | >5 µM
Cc1cn([C@@H]2O[C@@H]3CN[C@@]4(OCC5CCOC5)CS(=O)(=O)O[C@@]34[C@H]2O)c(=O)[nH]c1=O | >250 µM
Cc1cn([C@H]2O[C@@H](CO)[C@H](O)C2(F)F)c(=O)[nH]c1=O | >100 µM
O=C1NC(=O)C(CSCc2ccc(C(=O)O)cc2)(CSCc2ccc(C(=O)O)cc2)N1 | >100 µM
Nc1nc(=O)n([C@H]2O[C@@H](CO)[C@H](O)C2(F)F)cc1Br | >100 µM
C1CNC2(C1)C1CC3CC(C1)CC2C3 | 100 µg/mL
Cc1cn([C@@H]2O[C@@H]3CN[C@@]4(OCCO)CS(=O)(=O)O[C@@]34[C@H]2O[Si](C)(C)C(C)(C)C)c(=O)[nH]c1=O | 73 µM
CC(C)c1c(Cc2ccccc2)n(COCc2ccccc2)c(=O)[nH]c1=O | >10 µM
CCCC[C@@H](CCC(=O)O)NC(=O)c1ccccc1SSc1ccccc1C(=O)N[C@@H](CCCC)CCC(=O)O | 25 µM
COc1ccc(CSCC2(CSCc3ccc(OC)cc3)NC(=O)NC2=O)cc1 | >6 µM
NC[C@H]1C[C@@H](n2cnc3c(N)ncnc32)[C@H](O)[C@@H]1O | 117 µg/mL
CC(C)[C@@H](/C=C/C(=O)O)NC(=O)c1ccccc1SSc1ccccc1C(=O)N[C@H](/C=C/C(=O)O)C(C)C | 74 µM
Cc1cn([C@@H]2O[C@@H]3CN[C@@]4(O[Si](C)(C)C(C)(C)C)CS(=O)(=O)O[C@@]34[C@H]2O[Si](C)(C)C(C)(C)C)c(=O)[nH]c1=O | 7.04 µM
O=c1[nH]c(=O)n([C@H]2O[C@@H](CO)[C@H](O)C2(F)F)cc1Cl | >100 µM
Cc1cn([C@H]2C=C[C@@H](CO)O2)c(=O)[nH]c1=O | 80 µM
CNCC1CC12C1CC3CC(C1)CC2C3 | 4 µg/mL
C[C@H](Cc1ccc(OC(=O)CN(C)C)c(OC(=O)CN(C)C)c1)[C@@H](C)Cc1ccc(OC(=O)CN(C)C)c(OC(=O)CN(C)C)c1 | >100 µM
Nc1nc(=O)n([C@H]2O[C@@H](CO)[C@H](O)C2(F)F)cc1F | >100 µM
Nc1ccn([C@H]2O[C@@H](CO)C=C2F)c(=O)n1 | >100 µM
CC(C)C[C@H](NC(=O)c1ccccc1SSc1ccccc1C(=O)N[C@@H](CC(C)C)C(=O)OC(C)(C)C)C(=O)OC(C)(C)C | >100 µM
Nc1ccn([C@@H]2O[C@H](CO)C=C2F)c(=O)n1 | 35.3 µM
O=C1c2c(O)cc(O)cc2OC12c1c(cc(O)c3c1O[C@H](c1ccc(O)cc1)[C@@H](O)C3)O[C@@H]2c1ccc(O)cc1 | >50 µM
O=C1NC(=O)C(CS)(CS)N1 | >3 µM
Nc1ccn([C@@H]2C=C(F)[C@H](CO)O2)c(=O)n1 | >100 µM
CCNC(=O)NC(=O)C(C)OC(=O)c1c2c(nc3ccccc13)/C(=C\c1cccc([N+](=O)[O-])c1)CCC2 | 16 µM
COC(=O)C(NC(=O)c1ccccc1SSc1ccccc1C(=O)NC(C(=O)OC)C(=O)OC)C(=O)OC | >100 µM
Cc1cn([C@@H]2CC[C@H](COC(=O)CCCCCCCCCCCCC(=O)OC[C@H]3O[C@@H](n4cc(C)c(=O)[nH]c4=O)C[C@@H]3N=[N+]=[N-])O2)c(=O)[nH]c1=O | >1 µM
Nc1nc(=O)n([C@H]2C=C[C@@H](CO)O2)cc1F | ~100 µM
Cc1cn([C@@H]2O[C@@H]3CN[C@@]4(C#N)CS(=O)(=O)O[C@@]34[C@H]2O)c(=O)[nH]c1=O | >250 µM
COP(=O)(OC)OP(=O)(OC)OP(=O)(OC)OC[C@H]1O[C@@H](n2ccc3c(N)nc(N)nc32)[C@](C)(F)[C@@H]1O | >10 µM
Nc1nc(=O)n([C@H]2O[C@@H](CO)[C@H](O)C2(F)F)cc1Cl | >100 µM
O=C1NC(=O)C(CSCc2cccnc2)(CSCc2cccnc2)N1 | >100 µM
Cc1cn([C@@H]2CC[C@H](COC(=O)CCCCCCCCC(=O)OC[C@H]3O[C@@H](n4cc(C)c(=O)[nH]c4=O)C[C@@H]3N=[N+]=[N-])O2)c(=O)[nH]c1=O | >1 µM
Nc1ccn([C@H]2C[C@@H](CO)[C@H](O)[C@@H]2O)c(=O)n1 | >100 µM
CN[C@H](CC(C)C)C(=O)N[C@H]1C(=O)N[C@@H](CC(N)=O)C(=O)N[C@H]2C(=O)N[C@H]3C(=O)N[C@H](C(=O)N[C@H](C(=O)O)c4cc(O)c(CN5CCN(Cc6ccc(-c7ccccc7)cc6)CC5)c(O)c4-c4cc3ccc4O)[C@H](O)c3ccc(cc3)Oc3cc2cc(c3O)Oc2ccc(cc2Cl)[C@H]1O | >500 µM
O=C1NC(=O)C(CSCc2ccc([N+](=O)[O-])cc2)(CSCc2ccc([N+](=O)[O-])cc2)N1 | >9 µM
CCN1CCCC12C1CC3CC(C1)CC2C3 | >200 µg/mL
CCNC(=O)NC(=O)C(C)OC(=O)c1c2c(nc3ccccc13)/C(=C\c1cccc(OC)c1OC)CC2 | >300 µM
NC1CC12C1CC3CC(C1)CC2C3 | 32 µg/mL
O=c1[nH]cnc2c1ncn2[C@H]1O[C@@H](CO)[C@H](O)C1(F)F | >100 µM
O=C1NC(=O)C(CSCc2cccc3ccccc23)(CSCc2cccc3ccccc23)N1 | >100 µM
Cc1cn([C@H]2C[C@H](O)[C@@H](CO)O2)c(=O)n(C)c1=O | >500 µg/mL
COC(=O)C[C@H](CCCCN)NC(=O)c1ccccc1SSc1ccccc1C(=O)N[C@@H](CCCCN)CC(=O)OC | >100 µM
Nc1nc(=O)n([C@H]2O[C@@H](CO)C=C2F)cc1F | >100 µM
C#CCO[C@]12CS(=O)(=O)O[C@@]13[C@@H](CN2)O[C@@H](n1cc(C)c(=O)[nH]c1=O)[C@@H]3O[Si](C)(C)C(C)(C)C | 66.2 µM

A second listing of 3 rows from above:

compound	value
CNCC1CC12C1CC3CC(C1)CC2C3	4 µg/mL
CCNC(=O)NC(=O)C(C)OC(=O)c1c2c(nc3ccccc13)/C(=C\c1cccc(OC)c1OC)CC2	>300 µM
COC(=O)C[C@H](CCCCN)NC(=O)c1ccccc1SSc1ccccc1C(=O)N[C@@H](CCCCN)CC(=O)OC	>100 µM